Test results from patent publication US20250057893A1, “PHARMACEUTICAL COMPOSITION FOR PREVENTING OR TREATING CANCER OR INFLAMMATORY DISEASE” (ENTEROBIOME INC., priority 2021, published 2025).
No dose or concentration is given here for some results.

test system: Akkermansia muciniphila ATCC BAA-835; experiment: Utilization of carbohydrates (API50CH kit), type strain; type: cell-based; set-up: key: +: growth; w: weak growth; −: no growth; details: type strain ATCC BAA-835

Molecule	Growth using the carbohydrate, ATCC BAA-835
C[C@@H](O)[C@H](O)[C@H](O)[C@@H](O)C=O [D-Fucose]	−
O=C[C@@H](O)[C@H](O)[C@H](O)CO [D-Arabinose]	w
O=C(CO)[C@@H](O)[C@H](O)[C@@H](O)CO [L-Sorbose]	−
OC[C@H]1O[C@@H](O[C@H]2[C@H](O)[C@@H](O)C(O)O[C@@H]2CO)[C@H](O)[C@@H](O)[C@H]1O (stereo partly drawn) [D-Lactose (bovine origin), D-Lactose]	+
O=C([O-])C(=O)C(O)C(O)C(O)CO.[K+] (stereo not drawn) [Potassium 2-Ketogluconate]	−
OC[C@@H](O)C(O)[C@H](O)CO [D-Arabitol]	−
OCC(O)CO [Glycerol]	−
OC[C@H]1O[C@@](CO)(O[C@H]2O[C@H](CO)[C@@H](O)[C@H](O)[C@H]2O)[C@@H](O)[C@@H]1O [D-Saccharose (sucrose), D-Saccharose]	−
OCc1ccccc1O[C@@H]1O[C@H](CO)[C@@H](O)[C@H](O)[C@H]1O [Salicine]	−
CO[C@@H]1OC[C@@H](O)[C@H](O)[C@H]1O [β-Methyl-xyloside]	−
OC[C@H]1O[C@H](O[C@H]2O[C@H](CO)[C@@H](O)[C@H](O)[C@H]2O)[C@H](O)[C@@H](O)[C@@H]1O [D-Trehalose]	−
O=C[C@@H](O)[C@@H](O)[C@H](O)CO [D-Lyxose]	w
OC[C@H]1O[C@@](CO)(O[C@H]2O[C@H](CO)[C@@H](O)[C@H](O)[C@H]2O)[C@@H](O[C@H]2O[C@H](CO)[C@@H](O)[C@H](O)[C@H]2O)[C@@H]1O [D-Melezitose]	−
OC[C@H]1O[C@@H](Oc2ccc(O)cc2)[C@H](O)[C@@H](O)[C@@H]1O [Arbutine]	−
OC[C@@H](O)[C@@H](O)[C@H](O)[C@H](O)CO [D-Mannitol]	−
OC[C@@H](O)[C@H](O)[C@H](O)[C@@H](O)CO [Dulcitol]	−
O=C[C@H](O)[C@@H](O)[C@@H](O)[C@H](O)CO [D-Galactose]	w
Glycogene	−
CO[C@H]1O[C@H](CO)[C@@H](O)[C@H](O)[C@H]1O [Methyl-α D-glucopyranoside]	−
D-Turanose	−
OC[C@H]1O[C@H](OC[C@H]2O[C@H](O[C@]3(CO)O[C@H](CO)[C@@H](O)[C@@H]3O)[C@H](O)[C@@H](O)[C@@H]2O)[C@H](O)[C@@H](O)[C@H]1O [D-Raffinose]	−

Molecule	Growth using the carbohydrate, ATCC BAA-835
C[C@H](O)[C@@H](O)[C@@H](O)[C@H](O)C=O [L-Fucose]	+
O=C(CO)[C@@H](O)[C@@H](O)[C@H](O)CO [D-Tagatose]	−
OC[C@@H](O)[C@@H](O)[C@@H](O)CO [Adonitol]	−
OC[C@H]1O[C@@H](O[C@H]2[C@H](O)[C@@H](O)[C@H](O)O[C@@H]2CO)[C@H](O)[C@@H](O)[C@@H]1O [D-cellobiose]	−
O=C[C@H](O)[C@@H](O)[C@@H](O)CO [L-Arabinose]	w
O=C[C@@H](O)[C@@H](O)[C@H](O)[C@H](O)CO [D-Mannose]	+
O[C@H]1[C@H](O)[C@@H](O)[C@H](O)[C@@H](O)[C@H]1O [Inositol]	−
OC[C@H]1O[C@H](O[C@H]2[C@H](O)[C@@H](O)[C@H](O)O[C@@H]2CO)[C@H](O)[C@@H](O)[C@@H]1O [D-Maltose]	−
O=C[C@H](O)[C@@H](O)[C@H](O)CO [D-Xylose]	w
O=C[C@H](O)[C@H](O)[C@H](O)CO [Ribose]	+
OC[C@H]1O[C@H](OCC2O[C@@H](O)[C@H](O)[C@@H](O)[C@@H]2O)[C@H](O)[C@@H](O)[C@H]1O (stereo partly drawn) [D-Melibiose]	−
O=C(CO)[C@@H](O)[C@H](O)[C@H](O)CO [D-Fructose]	w
C[C@H](O)[C@H](O)[C@@H](O)[C@@H](O)C=O [L-Rhamnose]	−
OC[C@@H](O)[C@H](O)[C@@H](O)CO [Xylitol]	−
O=C(CO)[C@@H](O)[C@H](O)[C@@H](O)C(=O)[O-].[K+] [Potassium 5-Ketogluconate]	w
OC[C@H](O)C(O)[C@@H](O)CO [L-Arabitol]	−
OC[C@@H](O)[C@@H](O)CO [Erythritol]	−
OC[C@@H](O)[C@@H](O)[C@H](O)[C@@H](O)CO [D-Sorbitol]	−
CO[C@H]1O[C@H](CO)[C@@H](O)[C@H](O)[C@@H]1O [Methyl-α D-mannopyranoside]	−
O=C[C@@H](O)[C@H](O)[C@@H](O)CO [L-Xylose]	w
CC(=O)N[C@H]1C(O)O[C@H](CO)[C@@H](O)[C@@H]1O (stereo partly drawn) [N-Acetylglucosamine]	+
